Assay results as given in PMC12085566.

Biological target: BG505 SOSIP.664 Env trimer (SOSIP-stabilized HIV-1 Env ectodomain) (HIV-1 isolate BG505)
Experiment: cryo-EM structure

4-domain CD4 (from UniProt P01730 26-206) (receptor)
stoichiometry N (per Env trimer (Populations 4 and 5)): 3
stoichiometry N (per Env trimer): 3
